Reference: PubChem BioAssay AID1637 (Sanford-Burnham Center for Chemical Genomics, 2009)
The list shows a part of the results, in another mix than the full data. Activity calls are given as the source filed them. The rule behind the calls is not given here.

Assay: NMR binding screen, influenza A RNA promoter, Kd (AID 1637)
Conditions: NMR binding to influenza A RNA promoter

| SMILES | Kd |
| --- | --- |
| Cc1c2non([O-])c-2c(C)[n+](=O)[n+]1[O-] | inactive: > 4 mM |
